Laboratory results from paper PMC8286817, “Identifying SARS-CoV-2 antiviral compounds by screening for small molecule inhibitors of Nsp14 RNA cap methyltransferase” (Biochemical Journal, 2021).

Biological target: SARS-CoV-2 nsp14 guanine-N7 methyltransferase (Severe acute respiratory syndrome coronavirus 2, UniProt P0DTD1)
Experiment: High-throughput primary screen for nsp14 inhibitors (HTRF, Z-scores)
Format: biochemical
Settings: compounds at 3.125 µM; 10 nM nsp14, 1 µM SAM, 0.13 mM GpppA, 20 min

SMILES: O=[N+]([O-])c1cc(O)c(O)c([N+](=O)[O-])c1
- Z-Score in primary screen: 3.084
